A mixed list of measured activities; the numbers were collected in NIAID ChemDB.

All rows: host cell toxicity; endpoint: CC50

CCn: concentration that lowers growth or viability of the cells by n%.

SMILES	cell line	read by	value
Nc1nc(-c2ccc(NC(=O)CCN(Cc3ccccc3)C(=O)OCc3ccccc3)cc2)cs1	HS68	-	<8 µM
O=C(CN1CCN(c2cccc(-c3cc(=O)n(O)c4ncccc34)c2)CC1)N1CCCC1	HeLa	-	<100 µM
CCC1(Cc2ccccc2)OS(=O)(=O)C=C1OC(c1ccccc1)c1ccccc1	HEL fibroblasts	-	>200 µM
O=c1cc(OCc2cccc(Cl)c2)oc2ccc(OCc3cccc(Cl)c3)c(O)c12	Hs27	MTT	>50 µM
COc1cc(OC[C@H]2CC[C@@H](COCc3ccccc3)O2)nc(N)n1	PC-3	-	69 µM
Cc1cc(CN2CCn3c(nc(C(=O)NCc4ccc(F)cc4)c(O)c3=O)C2(C)C)on1	MT-4	microscopy	>1 µM
CC[C@@H]1/C=C(\C)C[C@H](C)C[C@H](OC)[C@H]2O[C@@](O)(C(=O)C(=O)N3CCCC[C@H]3C(=O)O[C@H](/C(C)=C/[C@H]3CC[C@H](O)[C@H](OC)C3)[C@H](C)[C@@H](O)CC1=O)[C@H](C)C[C@@H]2OC	P-388	-	28 µg/mL
CC1(C(c2ccccc2)c2ccccc2)OS(=O)(=O)C=C1OCc1ccccc1	HEL fibroblasts	-	>200 µM
CCOC(=O)c1c(O)c2cc(-c3cccc(C#N)c3)cnc2n(O)c1=O	HeLa	-	>100 µM
CCCC(CCC)NCCC(=O)Nc1ccc(-c2csc(N)n2)cc1	HS68	-	<9 µM
CC(=O)OC(C(C)C(C)C(C)(C)OC(C)=O)C1OC12C(O)CC1C3CCC4CC(=O)CCC4C3CCC12CO	P-388	MTT	>50 µg/mL
C1CN(CC2CO2)CC[N+]2(C1)CC[N+]1(CCCN(CC3CO3)CC1)CC2	K562	-	141.1 µg/mL
N#Cc1c(-c2ccccc2)s[nH]c1=S	HEP-2	-	60 µM
CCC1(Cc2ccccc2)OS(=O)(=O)C=C1OS(=O)(=O)c1ccc(C)cc1	HEL fibroblasts	-	109 µM
CCN(CC)C(=S)Sc1ncnc(N2CC[N+]3(CC2)CC[N+]2(CCN(c4ncnc(SC(=S)N(CC)CC)c4[N+](=O)[O-])CC2)CC3)c1[N+](=O)[O-]	K562	-	>224.2 µg/mL
O=C(NCCc1ccc2c(n1)NCCC2)Oc1ccc(Cl)cc1	PBMC	-	11 µM
NC(=S)Nc1cccc(OCCCCCOc2ccc(F)cc2)c1	Ava5-EG(delta4AB)SEAP	MTS	>1 µM
NN1CC[N+]2(CC1)CC[N+]1(CCN(N)CC1)CC2	L929	-	113.7 µg/mL
Clc1ccc(-n2ncc3c(NCCc4c[nH]c5ccccc45)ncnc32)c(Cl)c1	HUH 9B	-	11 µM
COC1(OC)CCC2(C)C(CCC3C2CCC2(COC(C)=O)C3CC(O)C23OC3C(OC(C)=O)C(C)C(C)C(C)(C)O)C1	P-388	MTT	>50 µg/mL
O=S1(=O)C=C(OCc2ccccc2)C2(CCc3ccccc3C2)O1	HEL fibroblasts	-	131 µM
O=c1cc(OCc2ccccc2)oc2ccc(OCc3cccc(Cl)c3)c(O)c12	Hs27	MTT	>50 µM
CCc1ccc(S(=O)(=O)NCCc2ccc3c(n2)NCCC3)cc1	PBMC	-	50 µM
COc1cc(OC[C@H]2CC[C@@H](COCc3ccccc3)O2)ncn1	PC-3	-	90 µM
Cc1nc(N2CC[N+]3(CC2)CC[N+]2(CCNCC2)CC3)c([N+](=O)[O-])c(N2CC[N+]3(CC2)CC[N+]2(CCNCC2)CC3)n1	L929	-	>228.7 µg/mL
N#Cc1cccc(COc2cc(=O)c3c(O)c(OCc4cccc(Cl)c4)ccc3o2)c1	Hs27	MTT	>50 µM
Cn1cncc1C(=O)c1nccc2c1[nH]c1ccccc12	H-116	-	>5 µg/mL
C/C(=N\NC(=O)c1ccccc1)c1cccc(/C(C)=N/NC(=O)c2ccccc2)n1	HL-60	MTT	0.98 µM
O=c1c(-c2ccccc2)c(O)c2cc(F)cnc2n1O	HeLa	-	0.14 µM
O=C(NCCc1ccc(Cl)c(Cl)c1)NCCc1ccc2c(n1)NCCC2	PBMC	-	1.8 µM
CSc1nsc(-c2ccccc2)c1C#N	L929	-	20 µM
CC(=O)N(CC(C)C)C1CN(C)CCn2c1nc(C(=O)NCc1ccc(F)cc1)c(O)c2=O	MT-4	microscopy	>1 µM
CSc1nsc(-c2ccc(C)cc2)c1C#N	HEP-2	-	18 µM
CCC1(Cc2ccccc2)OS(=O)(=O)C=C1OCc1ccc(C(C)(C)C)cc1	HEL fibroblasts	-	>200 µM
CC(C)C[C@@H]1NC(=O)[C@H](Cc2c[nH]c3ccccc23)NC(=O)[C@@H](CO)NC(=O)[C@H](CC(N)=O)NC(=O)[C@H](C(C)C)NC(=O)[C@@H](CC(C)C)NC1=O	Colorectal carcinoma	MTT	>30 µM
O=S1(=O)C=C(OCc2ccccc2)C(Cc2ccccc2)(Cc2ccccc2)O1	HEL fibroblasts	-	>200 µM
CSc1nsc(-c2ccc(O)cc2)c1C#N	L929	-	2 µM
CC(C)C[C@@H]1NC(=O)[C@H](Cc2c[nH]c3ccccc23)NC(=O)[C@@H](CCCCN)NC(=O)[C@H](CC(N)=O)NC(=O)[C@H](C(C)C)NC(=O)[C@@H]2CCCN2C1=O	Colorectal carcinoma	MTT	>30 µM
OC[C@@H]1CC[C@H](COc2ncnc3nc[nH]c23)O1	L1210	-	>250 µM
COc1ccc(Nc2nccc(-c3c(-c4ccc(F)cc4)nn4c(NC5CCCC5)cccc34)n2)cc1	VERO 76	-	>40 µM
Cc1noc(CN2CCn3c(nc(C(=O)NCc4ccc(F)cc4)c(O)c3=O)C2(C)C)n1	MT-4	microscopy	>1 µM
CCCCCCCCNC(=S)Nc1cccc(OCCCCCc2ccccc2)c1	Ava5-EG(delta4AB)SEAP	MTS	>1 µM
O=C(NCCc1cccc(-n2ccnc2)n1)Nc1ccc(Cl)nc1	PBMC	-	50 µM
CC(C)C[C@@H]1NC(=O)[C@H](Cc2c[nH]c3ccccc23)NC(=O)C(C)(C)NC(=O)[C@H](CCCCN)NC(=O)[C@H](C(C)C)NC(=O)[C@@H](CC(C)C)NC1=O	Colorectal carcinoma	MTT	>30 µM
NC(=S)Nc1ccc2c(c1)Cc1cc(N)ccc1-2	Ava5-EG(delta4AB)SEAP	MTS	>1 µM
Cc1nsc(C)c1C#N	L929	-	1000 µM
Nc1nc(=O)c2ncn([C@@H]3O[C@H](CO)[C@@H](O)[C@H]3O)c2c(=O)[nH]1	HFF (dividing cells)	-	>100 µM
NC(=S)Nc1cccc(OCCCCCOc2cccc3cccnc23)c1	Ava5-EG(delta4AB)SEAP	MTS	>1 µM
CN1CCn2c(nc(C(=O)NCc3ccc(F)cc3)c(O)c2=O)C(NC(=O)C(=O)N(C)C)C1	MT-4	microscopy	>1 µM
O=C(NCCCl)N1CC[N+]2(CC1)CC[N+]1(CCN(C(=O)NCCCl)CC1)CC2	L929	-	>90.4 µg/mL
O=C1N=C(N2CCOCC2)S/C1=C\c1ccc(-c2ccc(C(=O)O)c(O)c2)o1	BAE	MTT	76 µM
Cc1ccc(-n2ncc3c(NCCc4ccc(S(N)(=O)=O)cc4)ncnc32)c(C)c1	HUH 9B	-	>30 µM
NC(=S)Nc1cccc(OCCCCCc2cccc3ccccc23)c1	Ava5-EG(delta4AB)SEAP	MTS	>1 µM
CCN(CC)C(=O)N1CCN(c2ncnc(N3CC[N+]4(CC3)CC[N+]3(CCN(c5ncnc(N6CCN(C(=O)N(CC)CC)CC6)c5[N+](=O)[O-])CC3)CC4)c2[N+](=O)[O-])CC1	L929	-	>203.7 µg/mL
Cc1ccc(-n2ncc3c(Nc4cc(Cl)cc(Cl)c4)ncnc32)c(C)c1	HUH 9B	-	>50 µM
CSCC1NCCn2c1nc(C(=O)NCc1ccc(F)cc1)c(O)c2=O	MT-4	microscopy	>1 µM
CC(C)(C)CC(=O)N[C@@H](Cc1ccccc1)C(=O)Nc1ccc(-c2csc(N)n2)cc1	HS68	-	<21 µM
CCCCNc1nccc(-c2c(-c3ccc(F)cc3)nn3c(NCCN4CCOCC4)cccc23)n1	VERO 76	-	12 µM
CCC1(Cc2ccccc2)OS(=O)(=O)C=C1OCC#N	HEL fibroblasts	-	>200 µM
CSc1nsc(-c2ccc[n+](C)c2)c1C#N	L929	-	1250 µM
O=C1/C(=C/c2ccc(-c3cc(C(F)(F)F)ccc3Cl)o2)SC(=S)N1Cc1ccc(F)cc1	Ramos	MTT	4.1 µM
Nc1nc(-c2ccc(NC(=O)CN(CC3CCCCC3)C(=O)C3CCCC3)cc2)cs1	HS68	-	>21 µM
CSc1nsc(-c2cccnc2)c1C#N	HEP-2	-	20 µM
Fc1ccc(-c2nn3c(N4CCCCC4)cccc3c2-c2ccnc(NC3CCCC3)n2)cc1	VERO 76	-	>40 µM
Cc1ccc(-n2ncc3c(Nc4cccc(C(F)(F)F)c4)ncnc32)c(C)c1	HUH 9B	-	36 µM
N#Cc1ccc(-c2c(O)c3cccnc3n(O)c2=O)cc1	HeLa	-	<100 µM
O=C(O)c1ccc(-c2ccc(/C=C3\SC(=S)N(CCc4ccc(Cl)c(Cl)c4)C3=O)o2)cc1O	HEK 293	MTT	29 µM
CC1(C)c2nc(C(=O)NCc3ccc(F)cc3)c(O)c(=O)n2CCN1Cc1ccn[nH]1	MT-4	microscopy	>1 µM
Cc1ccc(-n2ncc3c(NC(=O)Cc4ccccc4Br)ncnc32)c(C)c1	HUH 9B	-	35 µM
CCCCNc1cccc2c(-c3ccnc(NC4CCCC4)n3)c(-c3ccc(F)cc3)nn12	VERO 76	-	>40 µM
Nc1cc(OC[C@H]2CC[C@@H](COCc3ccccc3)O2)ncn1	PC-3	-	136 µM
NC(=S)Nc1cccc(OCCCCCOc2ccc(N3CCCC3)cc2)c1	Ava5-EG(delta4AB)SEAP	MTS	>1 µM
COC(=O)C1=C2Nc3ccccc3[C@@]23CCN2[C@H](O)[C@]4(CC5C[C@]67CC(=O)O[C@H]6CCC6NC[C@@]8(c9cccc(OC)c9N(C4)[C@@H]58)[C@@H]67)[C@@H]4OCC[C@]4(C1)[C@H]23	J-Lat Tat-GFP 82	absorbance	0.35 µM
O=C(NCCc1ccc2c(n1)NCCC2)Nc1ccc(Br)c2ccccc12	PBMC	-	2.2 µM
Clc1ccccc1-n1ncc2c(NCCc3c[nH]c4ccccc34)ncnc21	HUH 9B	-	20 µM
CC(C)C[C@@H]1NC(=O)[C@@H](Cc2c[nH]c3ccccc23)NC(=O)CNC(=O)[C@@H](CC(N)=O)NC(=O)[C@H](C(C)C)NC(=O)[C@@H](CC(C)C)NC1=O	Colorectal carcinoma	MTT	>30 µM
COc1ccc(C2C3=C(CC(C)(C)CC3=O)Nc3ccccc3N2C(C)=O)cc1OCc1ccccc1	MT4-LTR-LUC	-	>32 µM
CCCCNc1nccc(-c2c(-c3ccc(F)cc3)nn3c(N4CCOCC4)cccc23)n1	VERO 76	-	>40 µM
Nc1cc(OC[C@@H]2O[C@H](CO)[C@@H](O)[C@H]2O)nc(N)n1	CAKI-1	-	137 µM
Cc1ccc(-n2ncc3c(Nc4ccc5[nH]ncc5c4)ncnc32)c(C)c1	HUH 9B	-	>50 µM
Nc1ccnc(OC[C@H]2CC[C@@H](COCc3ccccc3)O2)n1	CAKI-1	-	≥250 µM
CSc1nsc(-c2cccc3ccccc23)c1C#N	L929	-	4 µM
CCCCc1ccc(Nc2ncnc3c2cnn3-c2cccc(Cl)c2)cc1	HUH 9B	-	>50 µM
Cc1cc(C=O)cc(C)c1Oc1cc(Nc2ccc(C#N)cc2)nc2ccccc12	H69AR	MTT	27.6 µM
COc1cc(OC[C@H]2CC[C@@H](CO)O2)ncn1	PC-3	-	≥250 µM
O=[N+]([O-])c1c(Cl)nc(C(F)(F)F)nc1N1CC[N+]2(CC1)CC[N+]1(CCN(c3nc(C(F)(F)F)nc(Cl)c3[N+](=O)[O-])CC1)CC2	K562	-	>261 µg/mL
NS(=O)(=O)c1ccc(CCNc2ncnc3c2cnn3-c2ccccc2Cl)cc1	HUH 9B	-	>50 µM
Nc1nccc(OC[C@H]2CC[C@@H](CO)O2)n1	CAKI-1	-	156 µM

The first 7 rows once more:

SMILES	cell line	read by	value
Nc1nc(-c2ccc(NC(=O)CCN(Cc3ccccc3)C(=O)OCc3ccccc3)cc2)cs1	HS68	-	<8 µM
O=C(CN1CCN(c2cccc(-c3cc(=O)n(O)c4ncccc34)c2)CC1)N1CCCC1	HeLa	-	<100 µM
CCC1(Cc2ccccc2)OS(=O)(=O)C=C1OC(c1ccccc1)c1ccccc1	HEL fibroblasts	-	>200 µM
O=c1cc(OCc2cccc(Cl)c2)oc2ccc(OCc3cccc(Cl)c3)c(O)c12	Hs27	MTT	>50 µM
COc1cc(OC[C@H]2CC[C@@H](COCc3ccccc3)O2)nc(N)n1	PC-3	-	69 µM
Cc1cc(CN2CCn3c(nc(C(=O)NCc4ccc(F)cc4)c(O)c3=O)C2(C)C)on1	MT-4	microscopy	>1 µM
CC[C@@H]1/C=C(\C)C[C@H](C)C[C@H](OC)[C@H]2O[C@@](O)(C(=O)C(=O)N3CCCC[C@H]3C(=O)O[C@H](/C(C)=C/[C@H]3CC[C@H](O)[C@H](OC)C3)[C@H](C)[C@@H](O)CC1=O)[C@H](C)C[C@@H]2OC	P-388	-	28 µg/mL

Rows are shuffled and stem from different studies. Blank or dashed fields: not listed here.